Consider one compound from patent publication US7772180B2, “Hepatitis C virus inhibitors” (Bristol-Myers Squibb Company, priority 2006, dated 2010).

Amino acid sequences for entries named in this document (tags omitted). A change or cut given only in a name is not applied to a line headed by its entry. Residues count along the entry.
UniProt P27958, 1027-1657 limits assumed, stated change not applied: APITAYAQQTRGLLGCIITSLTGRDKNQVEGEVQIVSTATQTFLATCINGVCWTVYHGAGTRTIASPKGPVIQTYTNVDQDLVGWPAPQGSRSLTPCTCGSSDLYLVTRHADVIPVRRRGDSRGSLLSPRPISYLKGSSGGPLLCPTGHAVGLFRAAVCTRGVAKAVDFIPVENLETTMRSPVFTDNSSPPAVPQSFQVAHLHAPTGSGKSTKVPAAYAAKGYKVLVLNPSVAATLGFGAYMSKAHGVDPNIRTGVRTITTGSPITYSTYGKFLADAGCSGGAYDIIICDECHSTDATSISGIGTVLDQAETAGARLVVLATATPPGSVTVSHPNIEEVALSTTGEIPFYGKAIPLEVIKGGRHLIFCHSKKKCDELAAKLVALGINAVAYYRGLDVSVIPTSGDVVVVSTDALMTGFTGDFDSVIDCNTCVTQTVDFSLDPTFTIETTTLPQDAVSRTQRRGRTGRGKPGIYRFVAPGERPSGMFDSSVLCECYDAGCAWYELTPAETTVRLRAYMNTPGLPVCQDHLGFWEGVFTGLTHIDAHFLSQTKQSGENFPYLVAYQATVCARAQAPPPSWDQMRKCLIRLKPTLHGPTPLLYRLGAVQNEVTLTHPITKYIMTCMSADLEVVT

Molecules are shown by their SMILES.

Experiment [1] concerns HCV replicon (strain 1b) in HUH-7 cells. As to the kind of experiment: HCV replicon FRET assay. Format: cell-based, Hepatitis C virus. The conditions noted are these: read-out: HCV Pro Replicon (EC50); HCV replicon cell assay; activity range class. The text has this:
An HCV replicon whole cell system was established as described by Lohmann V, Korner F, Koch J, Herian U, Theilmann L, Bartenschlager R., Science 285(5424): 110-3 (1999). This system enabled us to evaluate the effects of our HCV Protease compounds on HCV RNA replication. Briefly, using the HCV strain 1b sequence described in the Lohmann paper (Assession number: AJ238799), an HCV cDNA was synthesized by Operon Technologies, Inc. (Alameda, Calif.), and the full-length replicon was then assembled in plasmid pGem9zf(+) (Promega, Madison, Wis.) using standard molecular biology techniques. […]
The HCV replicon FRET assay was developed to monitor the inhibitory effects of compounds described in the disclosure on HCV viral replication. […] After 4 days, cells were first assessed for cytotoxicity using alamar Blue (Trek Diagnotstic Systems) for a CC50 reading. The toxicity of compound (CC50) was determined by adding 1/10th volume of alamarBlue to the media incubating the cells. After 4 hours, the fluorescence signal from each well was read, with an excitation wavelength at 530 nm and an emission wavelength of 580 nm, using the Cytofluor Series 4000 (Perspective Biosystems). […]
A general note: Replicon systems follow genome replication, usually without infectious particles.

In experiment [2] the target is HCV NS3/4A protease complex, BMS strain (UniProt P27958, species not given/STRAIN_BMS). As to the kind of experiment: FRET peptide assay to monitor HCV NS3/4A proteolytic activity (BMS strain). The conditions noted are these: read-out: HCV Protease (IC50); NS3/4A BMS strain; activity range class. In kind it is biochemical, Hepatitis C virus (genotype 1a). The text has this: HCV NS3 protease complexes, derived from the BMS strain, H77 strain or J4L6S strain, were generated, as described below. These purified recombinant proteins were generated for use in a homogeneous assay (see below) to provide an indication of how effective compounds of the present disclosure would be in inhibiting HCV NS3 proteolytic activity.
Serum from an HCV-infected patient was obtained from Dr. T. Wright, San Francisco Hospital. […]
In order to monitor HCV NS3/4A protease activity, an NS3/4A peptide substrate was used. […] The peptide also contains a fluorescence donor, EDANS, near one end of the peptide and an acceptor, DABCYL, near the other end. The fluorescence of the peptide is quenched by […] resonance energy transfer (RET) between the donor and the acceptor, but as the NS3 protease cleaves the peptide the products are released from RET quenching and the fluorescence of the donor becomes apparent.
The peptide substrate was incubated with one of the three recombinant NS3/4A protease complexes, in the absence or presence of a compound of the present disclosure. The inhibitory effects of a compound were determined by monitoring the formation of fluorescent reaction product in real time using a Cytofluor Series 4000. […]

Usually EC50 stands for the concentration giving half of the maximal effect. What is called IC50 is the concentration at which inhibition is half-maximal. In the case of `C=C[C@@H]1C[C@]1(NC(=O)[C@@H]1C[C@@H](Oc2ncc(OC)c3ccc(Cl)cc23)CN1C(=O)C(Nc1cccc(F)c1)C(C)(C)C)C(=O)NS(=O)(=O)C1CC1` (some centres unmarked), the EC50 in experiment [1] is 3 to 100 nM. In experiment [2], the concentration for half-maximal inhibition (IC50) was in the range of 0.6 to 20 nM.
